Here are results for one molecule from article PMC8956657 (Nature Communications, 2022).

The target in assay [1] is T1, IMPα3 lacking the IBB domain (residues 64-521) (UniProt O00629 64-521).
T1 construct: also called ΔIBB-IMPα3; KPNA4
T1 sequence (looked up): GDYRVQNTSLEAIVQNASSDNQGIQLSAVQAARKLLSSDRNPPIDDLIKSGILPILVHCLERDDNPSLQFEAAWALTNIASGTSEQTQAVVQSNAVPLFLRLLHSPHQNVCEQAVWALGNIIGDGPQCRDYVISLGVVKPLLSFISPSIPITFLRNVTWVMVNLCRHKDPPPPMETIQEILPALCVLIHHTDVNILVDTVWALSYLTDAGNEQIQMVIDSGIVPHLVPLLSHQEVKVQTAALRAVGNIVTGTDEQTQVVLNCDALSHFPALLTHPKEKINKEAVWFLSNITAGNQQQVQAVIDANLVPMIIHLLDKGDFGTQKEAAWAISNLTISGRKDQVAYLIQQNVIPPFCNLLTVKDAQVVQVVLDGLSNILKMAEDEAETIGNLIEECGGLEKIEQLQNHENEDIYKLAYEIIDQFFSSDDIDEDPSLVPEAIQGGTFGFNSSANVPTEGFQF
The assay can be described thus: crystal structure. Conditions: both partners purified.

Assay [2] addresses IMPα2 lacking the IBB domain (residues 70-529) (UniProt P52293 70-529). The assay can be described thus: crystal structure. Conditions: both partners purified.

With RKARKRSHSPTKKLRYVKRRF (domain or fragment) [MERS-CoV ORF4b NLS region (residues 19-39), recombinant], the binding result in assay [1] and in assay [2] was “binds” throughout.
